Results reported in US6399654B1, “Biflavanoids and derivatives thereof as antiviral agents” (priority 1995, dated 2002).
Read-outs that look alike come from different tables or passages of the source.

Experiments:
Hepatitis B Virus (HBV) = assay: Inhibition of HBV replication in 2.2.15 cells, extracellular (virion) HBV DNA;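 note: extracellular virion HBV DNA in culture medium measured by slot blot hybridization with a 32P-labeled HBV probe, quantified against HBV DNA standards, after 9 days of daily dosing, compared with day 0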
Adenovirus Type 5 [1] = type: cell-based
Adenovirus Type 5 [2] = assay: Adenovirus type 5 neutral red dye uptake in A549 cells; type: cell-based
[3] = tested on: Respiratory Syncytial Virus; type: cell-based
[4] = tested on: Parainfluenza Type 3 Virus; type: cell-based
[5] = tested on: Influenza A (H1N1) Texas/36/91; type: cell-based, influenza A virus
Influenza B Panama/45/90 [6] = type: cell-based
[7] = tested on: Respiratory Syncytial Virus; type: cell-based; remark: listed apart in the source
Measles Virus [8] = type: cell-based
[9] = tested on: Influenza A (H3N2) Beijing/32/92; type: cell-based, influenza A virus
[10] = tested on: Parainfluenza Type 3 Virus; type: cell-based; remark: listed apart in the source
[11] = tested on: Influenza A (H3N2) Beijing/32/92; type: cell-based, influenza A virus; remark: listed apart in the source
Measles Virus [12] = assay: Measles virus neutral red dye uptake in BSC-1 cells; type: cell-based
[13] = tested on: Influenza A (H1N1) Texas/36/91; type: cell-based, influenza A virus; remark: listed apart in the source
Influenza B Panama/45/90 [14] = type: cell-based; remark: listed apart in the source

| Compound | TI (IC50/EC90) (Hepatitis B Virus (HBV)) | CPE Inhibition SI (IC50/EC50) (Adenovirus Type 5 [1]) | Neutral Red SI (IC50/EC50) (Adenovirus Type 5 [2]) | Neutral Red SI (IC50/EC50) [3] | CPI Inhibition SI (IC50/EC50) [4] | Neutral Red SI (IC50/EC50) [5] | CPE Inhibition SI (IC50/EC50) (Influenza B Panama/45/90 [6]) | CPE Inhibition SI (IC50/EC50) [7] | CPI Inhibition SI (IC50/EC50) (Measles Virus [8]) | CPE Inhibition SI (IC50/EC50) [9] | Neutral Red SI (IC50/EC50) [10] | Neutral Red SI (IC50/EC50) [11] | Neutral Red SI (IC50/EC50) (Measles Virus [12]) | CPE Inhibition SI (IC50/EC50) [13] | Neutral Red SI (IC50/EC50) (Influenza B Panama/45/90 [14]) | CPE Inhibition SI (IC50/EC50) (Influenza B Panama/45/90 [6]; listed as volkensiflavone hexamethyl ether) | CPE Inhibition SI (IC50/EC50) (Influenza B Panama/45/90 [6]; listed as volkensiflavone hexamethyl ether (6)) |
| --- | --- | --- | --- | --- | --- | --- | --- | --- | --- | --- | --- | --- | --- | --- | --- | --- | --- |
| Nc1ccn([C@H]2CC[C@@H](CO)O2)c(=O)n1 [2′,3′-ddC, 2′,3′-dideoxycytosine, reference compound] | 30 |  |  |  |  |  |  |  |  |  |  |  |  |  |  |  |  |
| Nc1ncnc2c1ncn2C[C@@H](CO)OCP(=O)(O)O [HPMPA, (S)-1-(3-hydroxy-2-phosophonylmethoxypropyl)adenine, reference compound] |  | 3 | 5 |  |  |  |  |  |  |  |  |  |  |  |  |  |  |
| Nc1nc2c(ncn2CCC(CO)CO)c(=O)[nH]1 [Penciclovir, penciclovir, reference compound] | 471 |  |  |  |  |  |  |  |  |  |  |  |  |  |  |  |  |
| O=C1CC(c2ccc(O)cc2)Oc2cc(O)c(-c3c(O)cc(O)c4c3OC(c3ccc(O)cc3)CC4=O)c(O)c21 (centres unmarked) [Rhusflavanone (9), rhusflavanone] |  | 1 | 0 | 0 | 0 | 1.1 | 9.3 | 0 | 2 | 0 | 0 | 1.0 | 8 | 0 |  |  |  |
| CC(=O)Oc1ccc([C@@H]2CC(=O)c3c(cc(OC(C)=O)c(-c4c(OC(C)=O)cc(OC(C)=O)c5c4O[C@H](c4ccc(OC(C)=O)cc4)CC5=O)c3OC(C)=O)O2)cc1 [Rhusflavanone hexaacetate (10), rhusflavanone hexaacetate] |  | 0 | 1 | 2 | 0 | 1.0 | 0 | 0 | 0 | 0 | 0 | 1.0 | 0 | 0 |  |  |  |
| O=C1CC(c2ccc(O)cc2)Oc2cc(O)c(-c3c(O)cc4c(c3O)C(=O)CC(c3ccc(O)cc3)O4)c(O)c21 (centres unmarked) [Succedaneaflavanone (11), succedaneaflavanone] |  | 0 | 1 | 0 | 0 | 1.0 | 15 | 0 | 0 | <1.2 | 0 | 1.0 | 1 | <1.5 | 3.2 |  |  |
| CC(=O)Oc1ccc([C@@H]2CC(=O)c3c(cc(OC(C)=O)c(-c4c(OC(C)=O)cc5c(c4OC(C)=O)C(=O)C[C@@H](c4ccc(OC(C)=O)cc4)O5)c3OC(C)=O)O2)cc1 [Succedaneaflavanone hexaacetate (12), succedaneaflavanone hexaacetate] |  | 1 | 1 | 1 | 0 | 1.0 | 2.2 | 0 | 0 | 1.4 | 0 | 1.0 | <1 | 1.5 | 1.0 |  |  |
| COc1ccc(-c2cc(=O)c3c(OC)cc(OC)c(C4C(=O)c5c(OC)cc(OC)cc5OC4c4ccc(OC)cc4)c3o2)cc1 (centres unmarked) [Volkensiflavone hexamethyl ether (6), volkensiflavone hexamethyl ether] |  | 0 | 0 | >1 | 0 | 0 | ˜38 | 2 | 1 | 0 | 0 | 0 | 1 | 0 | 5.0 | 38 | ~38 |
